Measurements from PubChem BioAssay.
Where “and” joins values, the source holds several entries; their conditions need not be identical. Equal entries are not always repeated. This is a selection; strong and weak results do not stand in their true shares. Calls of active or inactive are those of the source. Cut-off read from the data, not from the text of the source: active = parasite load remaining mostly below about 12% (no sharp cut-off); inactive = mostly above about 10%.

Assay: P. berghei load reduction in hepatocytes – cell-based, HepG2, luciferase luminescence, HepG2 viability, primary screen (AID 624349);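 note: 100% = mean of DMSO negative control wells on the same plate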
Conditions: P. berghei liver stage in HepG2, luciferase luminescence; active compounds read low; concentration not given here

Structure (SMILES) | parasite load remaining
C/C1=C2N=C(/C=C3N=C(/C(C)=C4\[N-][C@@](C)([C@@H]5N=C1[C@](C)(CCC(=O)NC[C@@H](C)OP(=O)([O-])O[C@H]1[C@@H](O)[C@@H](n6cnc7cc(C)c(C)cc76)O[C@@H]1CO)[C@H]5CC(N)=O)[C@@](C)(CC(N)=O)[C@@H]4CCC(N)=O)[C@@](C)(CC(N)=O)[C@@H]\3CCC(N)=O)C(C)(C)[C@@H]/2CCC(N)=O.[C-]#N.[Co+3] | inactive: 122% and inactive: 85.3%
OCCSCCO | inactive: 162%
